Potato spindle tuber viroid, loop 6: variant abundance in plants

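Three N. benthamiana plants were inoculated with the whole mutant pool. Progeny were sequenced from the inoculated region (day 5), the margin of the inoculated leaf (day 10) and systemic leaves (day 12).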

Region: loop 6 of PSTVd (intermediate strain), upper and lower strand joined, each 5' to 3', the first 5 letters being the upper strand, closing pairs included. Wild type: UGACCGCGAG. Varied positions (N): UNNNCGNNNG.

Values are reads per thousand in the sample; higher means more abundant, 0 means not found. Each site shows the three plants. "Pool" is the share in the plasmid pool used as inoculum, on the same scale. The inoculated region was read from the minus strand, the other sites from the plus strand. IR is the inoculated region, LM the leaf margin, Sys the systemic leaves. Wild type was 20.7 per thousand in the pool and the most common sequence in every sample (inoculated region 195, 198, 203; leaf margin 629, 591, 734; systemic leaves 942, 870, 868). Sequences that differ at fixed positions probably stem from PCR or sequencing errors, and defective variants can be carried along by functional ones. Samples held 36,220 to 57,551 reads, so the smallest values rest on one or two reads.

sequence,pool,IR,LM,Sys
UAACCGAGGG,0.157,0.122 0.108 0.203,0 0 0,0 0 0
UAAGCGGCUG,0.301,0.0695 0.0539 0.0553,0 0 0,0 0 0
UAAUCGAUGG,0.248,0.0695 0.198 0.111,0 0 0,0 0 0
UAAUCUACUA,0.0131,0 0 0,0 0 0,0 0 0
UACACGCUCG,0.196,0.139 0.0539 0.0738,0 0 0,0 0 0
UACACGGGUG,0.196,0.104 0.0898 0.0553,0 0 0.0464,0 0 0
UACAGGCCUG,0.0131,0 0 0,0 0 0,0 0 0
UACCCGGACG,0.275,0.122 0.126 0.0369,0.0552 0 0,0 0 0
UACUCGUUUG,0.353,0.0869 0.0539 0.0184,0 0 0,0 0 0
UAGACGCGUG,0.288,0.174 0.0539 0.0738,0 0 0,0 0 0
UAGGCGGACG,0.209,0.156 0.0898 0.0922,0 0 0,0 0 0
UAGGCGUCCG,0.275,0.0869 0.162 0.0738,0 0 0,0 0 0
UAUACGCUAG,0.196,0.139 0.108 0.111,0 0 0,0 0 0.0205
UAUACGGUGG,0.418,0.0869 0.251 0.0738,0.0276 0.0504 0,0 0 0
UAUACGUAAG,0.288,0.0695 0.0719 0.0184,0 0 0.0232,0 0 0
UAUCCGUGUG,0.288,0.122 0.0719 0.0922,0.0276 0 0,0 0 0
UAUGCGGUGG,0.170,0.174 0.0539 0.0922,0 0 0,0 0 0
UAUGCGGUUG,0.222,0.0174 0 0.0553,0 0 0.0232,0 0 0
UAUUCGUCGG,0.301,0.122 0.0719 0.0369,0.0276 0 0,0 0 0
UCAACGAGUG,0.222,0.139 0.0898 0.166,0 0 0,0 0 0
UCACCGCCGG,0.144,0.0869 0.0180 0.0738,0.0276 0 0.0232,0 0 0
UCAGCGACCG,0.222,0.0521 0.0719 0.0922,0 0 0.0232,0 0 0
UCAUCGGUUG,0.118,0.0521 0.0539 0.0738,0 0 0,0 0 0
UCCACGCCCG,0.209,0.0695 0.0719 0.0922,0 0 0.0232,0 0 0
UCCACGUUGG,0.235,0.0869 0.0719 0.0369,0 0 0.0232,0 0 0
UCCCCGCCAG,0.209,0.0869 0.0898 0.0553,0.0276 0 0,0 0 0
UCCCCGUCUG,0.510,0.0869 0.0359 0.0184,0 0.0252 0.0232,0 0 0
UCCGCGAACG,0.248,0.0521 0.0719 0.111,0 0 0,0 0 0
UCCGCGACAG,0.301,0.0695 0.0719 0.148,0.0276 0 0,0 0 0
UCCGCGUCAG,0.275,0.139 0.0898 0.0369,0.0276 0 0,0 0 0
UCCUCGAGGG,0.248,0.243 0.0180 0.0553,0.0276 0 0,0 0 0
UCGACGAAGG,0.105,0.0521 0.108 0.0738,0.0276 0 0,0 0 0
UCGACGGAGG,0.144,0.104 0.0539 0.0738,0 0 0,0 0 0
UCGCCGCCUG,0.261,0.139 0.108 0.0553,0 0 0,0 0 0
UCGGCGCUAG,0.235,0.0869 0.0539 0.0553,0 0 0,0 0 0
UCGUCGCACG,0.170,0.0869 0.0539 0.0738,0 0 0,0 0 0
UCGUCGCGUG,0.170,0.122 0.108 0.111,0 0 0,0 0 0
UGAACGUAAG,0.0654,0.643 0.862 0.387,0.0276 0.0757 0.0464,0 0 0
UGACAGCGUG,0.0131,0.556 0.611 0.516,0.0828 0.151 0.139,0.0359 0 0
UGACCGCAGG,0.0654,0.156 0.108 0.111,0.276 0.429 0,0.0180 0.0606 0
UGAUCGCAUG,0.157,0.122 0.0539 0.0738,0 0 0,0 0 0
UGCACAACGG,0.0131,0 0 0,0 0 0,0 0 0
UGCACGGAGU,0.0131,0.0174 0 0,0 0 0,0 0 0
UGCACGGCAG,0.131,0.765 0.754 0.664,0.110 0.0504 0.0928,0.0180 0.0404 0.0615
UGCCCGCCCG,0.170,0.122 0.0180 0.0553,0.0276 0 0.0232,0 0 0
UGCCCGUUGG,0.209,0.174 0.0898 0.221,0 0 0.0232,0 0 0
UGCUCGACAG,0.288,0.0869 0.0719 0.0184,0.0276 0 0.0232,0 0 0
UGCUCGAGCG,0.183,0.0521 0.0359 0.0738,0 0 0.0232,0 0 0
UGCUCGCAAG,0.118,0.139 0.108 0.240,0.0276 0 0.0464,0 0 0
UGGACGCAGG,0.209,0.0869 0.198 0.0553,0 0 0,0 0 0
UGGUCGAGCG,0.209,0.0695 0.0719 0.111,0 0 0,0 0 0
UGGUCGCGGG,0.353,0.104 0.0719 0,0 0 0,0 0 0
UGGUCGUUUG,0.379,0.122 0 0.0369,0 0 0,0 0 0
UGUCCGUCCG,0.248,0.156 0.108 0.0553,0 0 0.0232,0 0 0
UGUGCGGCCG,0.209,0.174 0.162 0.0369,0.0276 0 0.0464,0 0 0
UGUUCGGGCG,0.196,0.0695 0.126 0.0553,0.0276 0 0,0 0 0
UGUUCGGUAG,0.183,0.104 0.0359 0.0922,0 0 0,0 0 0
UUACCGAGAG,0.275,0.782 0.808 0.793,0.138 0.177 0.0928,0 0 0
UUCACGUGAG,0.275,0.104 0.162 0.0553,0.0276 0 0,0.0180 0 0
UUCUCGUCAG,0.353,0.0869 0.0898 0.0369,0 0 0,0 0 0
UUGACGAAUG,0.458,0.226 0.144 0.129,0 0 0,0.0180 0 0
UUGCCGAGAG,0.340,0.851 0.557 0.719,0.138 0.177 0.162,0 0 0.0205
UUGCCGAUCG,0.275,0.0695 0.0719 0.0369,0.0276 0 0,0 0 0
UUGUCGCUGG,0.222,0.0869 0.0898 0.0553,0.0276 0 0,0 0 0
UUUACGUCUG,0.275,0.139 0.0898 0.0922,0.0276 0 0,0 0 0
UUUCCGGGUG,0.131,0.156 0.126 0.0738,0.0276 0 0.0928,0 0 0
UUUGCGAAGG,0.0784,0.209 0.0898 0.0553,0 0 0,0 0 0
UUUGCGUGGG,0.261,0.156 0.126 0.0738,0 0 0.0232,0 0 0
UUUUCGACAG,0.196,0.0869 0.0359 0.166,0 0 0,0 0 0

Extract of 7 entries:

{"sequence": "UCCCCGUCUG", "pool": "0.510", "IR": "0.0869 0.0359 0.0184", "LM": "0 0.0252 0.0232", "Sys": "0 0 0"}
{"sequence": "UUUGCGAAGG", "pool": "0.0784", "IR": "0.209 0.0898 0.0553", "LM": "0 0 0", "Sys": "0 0 0"}
{"sequence": "UAAGCGGCUG", "pool": "0.301", "IR": "0.0695 0.0539 0.0553", "LM": "0 0 0", "Sys": "0 0 0"}
{"sequence": "UUUUCGACAG", "pool": "0.196", "IR": "0.0869 0.0359 0.166", "LM": "0 0 0", "Sys": "0 0 0"}
{"sequence": "UCGUCGCACG", "pool": "0.170", "IR": "0.0869 0.0539 0.0738", "LM": "0 0 0", "Sys": "0 0 0"}
{"sequence": "UCCGCGAACG", "pool": "0.248", "IR": "0.0521 0.0719 0.111", "LM": "0 0 0", "Sys": "0 0 0"}
{"sequence": "UUACCGAGAG", "pool": "0.275", "IR": "0.782 0.808 0.793", "LM": "0.138 0.177 0.0928", "Sys": "0 0 0"}

The measurements come from Wu et al. 2024 (doi:10.1371/journal.ppat.1012142).